From article PMC10716778 (The Journal of Biological Chemistry, 2023) come the findings set out here.

For the assay, the target named is KPC-44 (Klebsiella pneumoniae, UniProt Q9F663, DUP260-274). The class given is biochemical. Particulars: substrate hydrolysis by KPC-44, 30 °C.

The kcat is the number of substrate molecules converted per active site and unit of time at saturation. Broadly, the Km is the substrate concentration at which the rate is half of its maximum. Regarding `CC(C)(O/N=C(\C(=O)N[C@@H]1C(=O)N2C(C(=O)[O-])=C(C[n+]3ccccc3)CS[C@H]12)c1csc(N)n1)C(=O)O` [Ceftazidime], the kcat (50 mM sodium phosphate pH 7) was greater than 1.5 s⁻¹. In addition, for the setting “pH 7”, the Km was greater than 600 µM.
